Anti-infective test results gathered from many reports (values: NIAID ChemDB through PubChem).

Common to all: whole-cell or culture tests; organism: HIV-1; cells: MT-4; endpoint: EC50

An empty or dashed field is not shown. ECn is the concentration giving n% inhibition of infection, replication or growth. Neighbouring rows are from separate reports.

smiles | method | mutations | strain or isolate | setting | value
CC(C)(C)[C@H](N)C(=O)N[C@@H](Cc1ccccc1)[C@H](O)[C@@H](CO)[C@H](Cc1ccccc1)NC(=O)[C@@H](N)C(C)(C)C | - | - | IIIB | - | >10 µM
C#Cc1ccc(Nc2nccc(Oc3c(C)cc(-c4cn(Cc5cccc(C(=O)OC)c5)nn4)cc3C)n2)cc1 | MTT | Y181C | IIIB | - | >4.78 µM
CN(C)c1cccc2c1nc(-c1c(F)cccc1F)n2Cc1c(F)cccc1F | cytopathic effect / MTT | RT-V108I | - | - | 3.2 µM
Nc1ccccc1NC(=O)CSc1sc(Cl)nc1-c1ccc(Br)cc1Br | MTT | - | IIIB | - | 2.09 µM
CC(C)(C)[C@H](NC(=O)OCc1ccccc1)C(=O)N[C@@H](Cc1ccccc1)[C@@H](O)[C@H](CO)[C@H](Cc1ccccc1)NC(=O)[C@@H](NC(=O)OCc1ccccc1)C(C)(C)C | - | - | IIIB | - | 1.65 µM
CC(C)CN(C[C@@H](O)[C@H](Cc1ccccc1)NC(=O)O[C@H]1CCO[C@H]2OCC[C@H]21)S(=O)(=O)c1ccc2nc(NC3CC3)sc2c1 | p24 / luminescence | L23I E34Q K43I M46I I50L G51A L63P A71V V82A T91A | NL4-3 | - | 0.0002 µM
O=C(CSc1sc(Cl)nc1-c1ccc(Br)cc1Br)Nc1ccccc1F | MTT | - | IIIB | - | >33.18 µM
CC(C)Nc1cccnc1N1CCN(C(=O)c2cc3cc(NS(C)(=O)=O)ccc3[nH]2)CC1 | MTT | - | IIIB | - | 0.66 µM
c1cc(CN2CCCNCCNCCCNCC2)ccc1CN1CCCNCCNCCCNCC1 | MTT | - | K103N (subtype B) | - | 0.001 µg/mL
C#Cc1ccc(Nc2nccc(Oc3c(C)cc(-c4cn(Cc5ccccc5[N+](=O)[O-])nn4)cc3C)n2)cc1 | MTT | L100I | IIIB | - | >7.22 µM
COc1ccc(CN2CCC(N=C3C=C(Cc4cccc5ccccc45)NS(=O)(=O)N3)CC2)cc1 | MTT | - | IIIB | - | >119 µM
Cc1cn([C@H]2C[C@H](N=[N+]=[N-])[C@@H](CO)O2)c(=O)[nH]c1=O | MTT | F227L V106A | - | - | 0.0065 µM
C#Cc1ccc(Nc2nccc(Oc3c(C)cc(-c4cn(CCCC(=O)OC)nn4)cc3C)n2)cc1 | MTT | F227L and V106A | IIIB | - | >20.15 µM
CNC(C)(C)c1nc(C(=O)NCc2ccc(F)cc2)c(O)c(=O)[nH]1 | p24 | - | IIIB | 50% human serum | <1 µM
C1CCNCCCN(CCCN2CCCNCCCNCCC2)CCCNCCCCNCCCN(CCCN2CCCNCCCNCCC2)CCCNC1 | cytopathic effect | - | IIIB | - | 8.4 µM
N#Cc1ccccc1CN1CCC(N=C2C=C(Cc3ccc(Cl)cc3Cl)NS(=O)(=O)N2)CC1 | MTT | RT-K103N Y181C | RES056 | - | >121 µM
Nc1ncnc2c1ncn2[C@H]1CC[C@@H](CO)O1 | cytopathic effect | - | IIIB | - | 19.2 µM
CN(C)C1(c2nc(C(=O)NCc3ccc(F)cc3)c(O)c(=O)[nH]2)CCOCC1 | p24 | - | IIIB | 10% FBS | <0.04 µM
Cc1cc(C)c(CN2CCC(N=C3C=C(Cc4cccc5ccccc45)NS(=O)(=O)N3)CC2)c(C)c1 | MTT | - | IIIB | - | >70.22 µM
CC(C)(C)[C@H](N)C(=O)N[C@@H](Cc1ccccc1)[C@@H](O)[C@H](CO)[C@H](Cc1ccccc1)NC(=O)[C@@H](N)C(C)(C)C | - | - | IIIB | - | >10 µM
Cc1cc([N+](=O)[O-])ccc1NC(=O)CSc1sc(Cl)nc1-c1ccc(Br)cc1Br | MTT | E138K | IIIB | - | 7.89 µM
CC1(C)S[C@H]([C@H](NC(=O)Cc2ccccc2)C(=O)NCc2ccccc2)N[C@H]1C(=O)NCCNC(=O)[C@@H]1N[C@@H]([C@H](NC(=O)Cc2ccccc2)C(=O)NCc2ccccc2)SC1(C)C | syncytia | - | RF | - | 0.06 µM
C1CCNCCCN(CCC[N+]2(CCCN3CCCNCCCCNCCCNCCCNCCCNCCCCNCCC3)CCCNCCCCNCCCNCCCNCCCNCCCCNCCC2)CCCNCCCCNCCCNCCCNCCCNC1 | cytopathic effect | - | IIIB | - | 0.94 µM
O=S1(=O)NC(Cc2ccc(Cl)cc2Cl)=CC(=NC2CCN(Cc3ccc(Br)cc3)CC2)N1 | MTT | RT-K103N Y181C | RES056 | - | >97.9 µM
C#Cc1ccc(Nc2nccc(Oc3c(C)cc(-c4cn(Cc5ccc([N+](=O)[O-])cc5)nn4)cc3C)n2)cc1 | MTT | L100I | IIIB | - | 1.52 µM
CN1C2CCC1(c1nc(C(=O)NCc3ccc(F)cc3)c(O)c(=O)[nH]1)CC2 | p24 | - | IIIB | 10% FBS | <0.12 µM
O=c1[nH]cnc2c1ncn2[C@H]1CC[C@@H](CO)O1 | MTT | - | IIIB | - | 8.86 µM
O=S1(=O)NC(Cc2cccc3ccccc23)=CC(=NC2CCN(Cc3c(Cl)cccc3Cl)CC2)N1 | MTT | RT-K103N Y181C | RES056 | - | >54.73 µM
CC(=O)c1ccc(C)cc1NC(C(N)=O)c1c(Cl)cccc1Cl | cytopathic effect / MTT | - | Recombinant wild type | - | 0.023 µM
Fc1cccc(F)c1Cn1c(-c2c(F)cccc2F)nc2c(Br)cccc21 | cytopathic effect / MTT | RT-Y181C | - | - | 8.4 µM
Nc1nc(-c2ccc(Br)cc2Br)c(SCC(=O)Nc2ccccc2Cl)s1 | MTT | - | IIIB | - | >23.67 µM
COc1ccc(S(=O)(=O)N(CC(C)C)C[C@@H](O)[C@H](Cc2ccccc2)NC(=O)O[C@H]2CCO[C@H]3OC[C@H](O)[C@H]32)cc1 | p24 / luminescence | L10I I15V K20R L24I V32I M36I M46I I54V I62V L63P K70Q V82A L88M | NL4-3 | - | 0.014 µM
CC(=O)Oc1ccc(/C=C/C(=O)O[C@H](C(=O)O)[C@H](OC(=O)/C=C/c2ccc(OC(C)=O)c(OC(C)=O)c2)C(=O)O)cc1OC(C)=O | cytopathic effect / MTT | DS-resistant | NL4-3 | - | >93 µM
Nc1ccn([C@H]2CC[C@@H](CO)O2)c(=O)n1 | - | RT-D67N K70R V108A I135T | IIIB-AZT-2 (RT D67N K70R V108A I135T) | - | 0.6 µM
CC(C)CN(C[C@@H](O)[C@H](Cc1ccccc1)NC(=O)O[C@H]1CCOC1)S(=O)(=O)c1ccc(N)cc1 | p24 / luminescence | L10I I15V K20R L24I V32I M36I M46I I54V I62V L63P K70Q V82A L88M | NL4-3 | - | >1 µM
Cc1cn([C@H]2C[C@H](N=[N+]=[N-])[C@@H](CO)O2)c(=O)[nH]c1=O | MTT | - | IIIB | - | 0.0071 µM
Nc1cccc2c1nc(-c1c(F)cccc1F)n2Cc1c(F)cccc1F | cytopathic effect / MTT | RT-D67N K70R L100I T215Y K219Q | RT-4XAZT+L100I | - | 0.3 µM
CC(C)[C@H](NC(=O)OCc1ccccc1)C(=O)N[C@@H](Cc1ccccc1)[C@@H](O)[C@H](CO)[C@H](Cc1ccccc1)NC(=O)OC(C)(C)C | - | - | IIIB | - | >10 µM
Cc1cc(C#N)cc(C)c1Oc1nc(Nc2ccc(C#N)cc2)nc(N)c1Br | MTT | L100I | IIIB | - | 0.0049 µM
C#Cc1ccc(Nc2nccc(Oc3c(C)cc(-c4cn(CCc5ccccc5)nn4)cc3C)n2)cc1 | MTT | - | RES056 | - | >5.66 µM
Cc1ccnc2c1NC(=O)c1cccnc1N2C1CC1 | cytopathic effect / MTT | - | IIIB Recombinant wild type | - | 0.019 µM
CCNC(=O)[C@@H](NC(=O)Cc1ccccc1)[C@@H]1N[C@@H](C(=O)NCCNC(=O)[C@@H]2N[C@@H]([C@H](NC(=O)Cc3ccccc3)C(=O)NCC)SC2(C)C)C(C)(C)S1 | syncytia | - | RF | - | 1.1 µM
Cc1cc(C#N)cc(C)c1Oc1nc(Nc2ccc(C#N)cc2)ncc1SCC(=O)N1CCSCC1 | MTT | L100I | - | - | 0.3745 µM
CCN[C@H]1CO[C@@H]2OCC[C@H](OC(=O)N[C@@H](Cc3cccc(OC)c3)[C@H](O)CN(CC(C)C)S(=O)(=O)c3ccc4nc(NC(C)C)sc4c3)[C@@H]21 | p24 / luminescence | L10I I54V K20R L24I V32I L33F M36I M46I I54M L63P K70Q V82I I84V L89M | NL4-3 | - | 0.09 µM
Cc1cn([C@@H]2O[C@H](CO[Si](C)(C)C(C)(C)C)C3(OS(=O)(=O)C=C3N)[C@H]2O[Si](C)(C)C(C)(C)C)c(=O)n(C)c1=O | cytopathic effect / MTT | RT-A98S | Recombinant mutant | - | 0.011 µM
CN[C@H]1CO[C@@H]2OCC[C@H](OC(=O)N[C@@H](Cc3ccccc3)[C@H](O)CN(CC(C)C)S(=O)(=O)c3ccc4nc(NC5CC5)sc4c3)[C@@H]21 | p24 / luminescence | L10I I15V K20R L24I V32I M36I M46I L63P K70Q V82A I84V L89M | NL4-3 | - | 0.0027 µM
O=c1[nH]cnc2c1ncn2[C@H]1CC[C@@H](CO)O1 | cytopathic effect | - | IIIB | - | 18.6 µM
Cc1cn([C@H]2C[C@H](N=[N+]=[N-])[C@@H](CO)O2)c(=O)[nH]c1=O | cytopathic effect / MTT | - | RF | - | 0.002 µM
Cc1ccnc2c1NC(=O)c1cccnc1N2C1CC1 | MTT | - | BCF06 (subtype O) | - | 0.09 µg/mL
CCc1cccc2c1nc(-c1c(F)cccc1F)n2Cc1c(F)cccc1F | cytopathic effect / MTT | - | NL4-3 | - | 0.5 µM
C=C1[C@H](CO)[C@@H](O)C[C@@H]1n1cnc2c(=O)[nH]c(N)nc21 | MTT | - | RES056 | - | 0.043 µM
CN(C)C1(c2nc(C(=O)NCc3ccc(F)cc3)c(O)c(=O)[nH]2)CCC1 | p24 | - | IIIB | 50% human serum | <0.25 µM
C#Cc1ccc(Nc2nccc(Oc3c(C)cc(-c4cn(-c5ccc(C(=O)O)cc5)nn4)cc3C)n2)cc1 | MTT | F227L and V106A | IIIB | - | 2.73 µM
CNC(C)[C@H]1O[C@H](O[C@@H]2[C@@H](O)[C@H](O[C@@H]3OC[C@@](C)(O)[C@@H](NC)[C@@H]3O)[C@@H](NC(=O)[C@@H](N)CCCN=C(N)N)C[C@H]2NC(=O)[C@@H](N)CCCN=C(N)N)[C@H](NC(=O)[C@@H](N)CCCN=C(N)N)[C@@H](O)[C@@H]1O | cytopathic effect / MTT | - | RF | - | 30 µM
CC(C)Nc1cccnc1N1CCN(C(=O)c2cc3cc(NS(C)(=O)=O)ccc3[nH]2)CC1 | MTT | K103N | IIIB | - | 1.72 µM
O=S1(=O)NC(Cc2cccc3ccccc23)=CC(=NC2CCN(Cc3ccc(F)cc3)CC2)N1 | MTT | RT-K103N Y181C | RES056 | - | >120 µM
O=C(CSc1sc(Cl)nc1-c1ccc(Br)cc1Br)Nc1cccnc1Cl | MTT | K103N | IIIB | - | >23.24 µM
O=c1[nH]cnc2c1ncn2[C@H]1CC[C@@H](CO)O1 | cytopathic effect / MTT | RT-A98S E138A | Recombinant mutant | - | 10.6 µM
C1CCNCCCNCCCN(CCCN2CCCNCCCCNCCCN(CCCN3CCCNCCCNCCCCNCCCNCCC3)CCCNCCCCNCCC2)CCCNCCCNC1 | cytopathic effect | - | IIIB | - | 2.3 µM
CN(C)C1(c2nc(C(=O)NCc3ccc(F)cc3)c(O)c(=O)[nH]2)CC1 | p24 | - | IIIB | 10% FBS | <0.37 µM
CC(=O)Nc1cccc2c1nc(-c1c(F)cccc1F)n2Cc1c(F)cccc1F | cytopathic effect / MTT | RT-K101E | - | - | >20 µM
COc1ccc2c(c1)N(C(=O)OC(C)C)[C@@H](CSC)C(=S)N2 | cytopathic effect / MTT | RT-E138A S162C E169D T200A L214F | HXB2 (RT E138A S162C E169D T200A L214F) Clinical isolate | - | 0.00312 µM

The first 4 rows once more:

smiles,method,mutations,strain or isolate,setting,value
CC(C)(C)[C@H](N)C(=O)N[C@@H](Cc1ccccc1)[C@H](O)[C@@H](CO)[C@H](Cc1ccccc1)NC(=O)[C@@H](N)C(C)(C)C,-,-,IIIB,-,>10 µM
C#Cc1ccc(Nc2nccc(Oc3c(C)cc(-c4cn(Cc5cccc(C(=O)OC)c5)nn4)cc3C)n2)cc1,MTT,Y181C,IIIB,-,>4.78 µM
CN(C)c1cccc2c1nc(-c1c(F)cccc1F)n2Cc1c(F)cccc1F,cytopathic effect / MTT,RT-V108I,-,-,3.2 µM
Nc1ccccc1NC(=O)CSc1sc(Cl)nc1-c1ccc(Br)cc1Br,MTT,-,IIIB,-,2.09 µM